Measurements reported in article PMC4393083, “Antiviral Activity and Possible Mechanism of Action of Constituents Identified in Paeonia lactiflora Root toward Human Rhinoviruses” (PLoS ONE, 2015).

Assays:
Assay type in all cases: cell-based, human rhinovirus
HRV-2 [1] = assay: Cytopathic effect inhibition assay (MTT), HRV-2 in HeLa cells; conditions: CC50/IC50, HeLa cells
Procedure: (§1) Monolayers of HeLa and MRC5 cells were seeded onto a 96-well culture plate as stated previously. Subsequently, 90 μL media containing several different concentrations (1–1000 μg/mL) of each test material in DMSO was put into the wells, and then 10 μL of 10×TCID50 of the virus stock was added to produce an appropriate CPE within 2 days after infection. Ribavirin served as a reference control and was similarly prepared. Negative controls consisted of the DMSO solution. Viral inhibition rate (VIR) (%) was calculated according to the formula [21], VIR = (A tV—A cV)/(A cd—A cV) × 100, where A tV is the optical density measured with a given concentration of the test compound in HRV infected cells; A cV is the optical density measured for the control untreated HRV infected cells; A cd is the optical density measured for the control untreated HRV uninfected cells.
(§2) The CC50 and IC50 values were determined using GraphPad Prism 5 software program (GraphPad Software, La Jolla, CA). […] The selectivity index (SI) was determined as the ratio of CC50 to IC50 [23]. All data represent the mean ± SD of duplicate or triplicate samples of three independent experiments. Statistical analyses were carried out using SAS 9.13 program (SAS Institute, Cary, NC). Data from two groups were analyzed by a Student’s t-test, and multiple groups were analyzed by a one-way analysis of variance and Bonferroni multiple comparison post-test.

HRV-4 [2] = assay: Cytopathic effect inhibition assay (MTT), HRV-4 in HeLa cells; conditions: CC50/IC50, HeLa cells
Procedure: Extraction procedures of air-dried root of P. lactiflora were performed as described previously by Ngan et al.. For isolation of active principles, viral CPE inhibition assay toward HRV-4 in HeLa cell was used. […]. Column fractions were monitored by TLC on silica gel plates developed with chloroform and methanol (7:3 by volume) mobile phase. Fractions with similar R f values on the TLC plates were pooled. Active fractions 4 to 5 (EI, 2.44 g) and 7 (EII, 0.569 g) were obtained. The active fraction EI was rechromatographed on a silica gel column by elution with chloroform and methanol (70:30 by volume) to give nine fractions (each about 450 mL). A preparative HPLC was used for separation of constituents from the active fractions 3 to 5 (0.176 g). The column was a 4.6 mm i.d. × 150 mm Eclipse XDB-C18 (Agilent, Santa Clara, CA) using a mobile phase of methanol and water (3:7 by volume) at a flow rate of 0.5 mL/min. Chromatographic separations were monitored using a UV detector at 260 nm. […]. The three antiviral principles were characterized as paeonol (PA) (1), gallic acid (GA) (2), and 1,2,3,4,6-penta-O-galloyl-β-D-glucopyranose (PGG) (3) (Fig 1) by spectroscopic analyses, including MS and NMR. PA (1): compound 1 was isolated as an antibacterial principle from P. lactiflora root in our previous work, and the spectral data of compound 1 was largely identical to the published data. GA (2) was identified on the basis of the following evidence: white powder. UV (MeOH): λmax nm = 260. FT-IR: v max cm^–1 = 3491–3063 (OH stretch), 1608 (aromatic C = C). […] The interpretations of proton and carbon signals of compound 2 were largely consistent with those of Sakar et al.. PGG (3): compound 3 was isolated as an antibacterial principle from P. lactiflora root in our previous work, and the spectral data of compound 3 was largely identical to the published data.
Monolayers of HeLa and MRC5 cells were seeded onto a 96-well culture plate as stated previously. […] Viral inhibition rate (VIR) (%) was calculated according to the formula [21], VIR = (A tV—A cV)/(A cd—A cV) × 100, where A tV is the optical density measured with a given concentration of the test compound in HRV infected cells; A cV is the optical density measured for the control untreated HRV infected cells; A cd is the optical density measured for the control untreated HRV uninfected cells.
as §2, with “All data represent the mean ± SD of duplicate or triplicate samples of three independent experiments. Statistical analyses were carried out using SAS 9.13 program (SAS Institute, Cary, NC).” left out

HRV-4 [3] = assay: Cytopathic effect inhibition assay (MTT), HRV-4 in MRC5 cells; conditions: CC50/IC50, MRC5 cells
Procedure: as §1, §2

HRV-2 [4] = assay: Cytopathic effect inhibition assay (MTT), HRV-2 in MRC5 cells; conditions: CC50/IC50, MRC5 cells
Procedure: as §1, §2

SMILES	SI HRV-2 (HRV-2 [1])	SI HRV-4 (HRV-4 [2])	SI HRV-4 (HRV-4 [3])	SI HRV-2 (HRV-2 [4])
O=C(OC[C@H]1O[C@@H](OC(=O)c2cc(O)c(O)c(O)c2)[C@H](OC(=O)c2cc(O)c(O)c(O)c2)[C@@H](OC(=O)c2cc(O)c(O)c(O)c2)[C@@H]1OC(=O)c1cc(O)c(O)c(O)c1)c1cc(O)c(O)c(O)c1 [PGG, 1,2,3,4,6-penta-O-galloyl-β-D-glucopyranose]	9.4	7.6	6.3	6.1
COc1ccc(C(C)=O)c(O)c1 [PA, paeonol]	5.2	6.1	6.4	6.2
NC(=O)c1ncn([C@@H]2O[C@H](CO)[C@@H](O)[C@H]2O)n1 [Ribavirin, reference compound]	7.7	7.2	7	9.1
O=C(O)c1cc(O)c(O)c(O)c1 [GA, gallic acid]	3.5	3.3	–	–
